These substances were tested on mouse peritoneal macrophages (MPM) (assay: Cytotoxicity on mouse peritoneal macrophages (MTT reduction)). Conditions: IC50 MPM/IC50 axenic amastigotes.
Assay type: cell-based
Procedure: Leishmania parasites were collected at late exponential growth phase by centrifugation at 1610× g at 4 °C. Elicited mouse peritoneal macrophages (MPM) were obtained from 8-week-old Balb/c mice through i.p. injection with 1 mL of 10% thioglycolate medium 72 h before extraction. Macrophages were obtained by peritoneal washing (10 mL PBS, 4 °C).
Both activities were assessed by inhibition of MTT (3-(4,5-dimethylthiazol-2-yl)-2,5-diphenyltetrazolium bromide) reduction, as described in [34]. Samples were made in triplicate and assays were repeated at least twice. DMSO content in the medium was adjusted to 0.25% v/v (final concentration), regardless of the final concentration of the drug, and for the control, the untreated parasites. ICx (inhibitory concentration that inhibits parasite growth or enzymatic activity by x%) was calculated using the statistical module of SigmaPlot v11.0 software.

Substance | Selectivity Index (SI)
N-(1,4-Naphthoquinone-2-yl)acetamide [Compound 18] | 3.3
N-(1,4-Naphthoquinone-2-yl) phenylacetamide [Compound 20] | 2.3
N-(1,4-Naphthoquinone-2-yl)propionamide [Compound 19] | 2.4
